Data on 1 sequence can be found in ChEMBL document CHEMBL3797190, “Development of 3,5-Dinitrobenzylsulfanyl-1,3,4-oxadiazoles and Thiadiazoles as Selective Antitubercular Agents Active Against Replicating and Nonreplicating Mycobacterium tuberculosis” (J Med Chem, 2016).

The subject of test [1] is Mycobacterium tuberculosis. The following applies: 234/2005.
Test [2] relates to Mycobacterium tuberculosis. To be noted: Praha 4.

Take GENTAMICIN: the MIC>99 in test [1] was 0.25 µM; in test [2] it was 0.5 µM.
